Compound potency records, mixed from different reports. Data source: NIAID ChemDB in PubChem.

All rows: whole-cell or culture tests; species: Herpes simplex virus 2; endpoint: inhibition

Rows are shuffled and stem from different studies.

smiles,strain or isolate,cell line,method,dose,result
O=c1[nH]c(=O)n([C@@H]2O[C@H](CO)[C@@H](O)[C@@H]2F)cc1I,G,VERO,virus yield,1 µM,90.1%
CC12CCC3C(C[C@H](OS(=O)(=O)O)[C@H]4C[C@@H](OS(=O)(=O)O)CCC34C)C1CCC2C(=O)CO,G,VERO,plaque count,40 µg/mL,7.6%
C=Cc1cn([C@H]2C[C@H](O)[C@@H](CO)O2)c(=O)[nH]c1=O,333,HeLa,plaque count,10 µM,>99%
O=C(O)C(O)c1ccccc1,G,CaSki,plaque count,100 µg/mL,100%
Nc1ccn([C@H]2O[C@@H](CO)[C@H](O)[C@H]2F)c(=O)n1,G,VERO,virus yield,5 µM,91.1%
Nc1nc2c(ncn2COC(CO)CO)c(=O)[nH]1,G,PRK,cytopathic effect,0.1 µg/mL,≥25%
CC(=O)O[C@H]1CC2=CCC3C(CCC4(C)C(C(CCC=C(C)C)COS(=O)(=O)O)CCC34)C2(C)C[C@@H]1OS(=O)(=O)O,G,VERO,plaque count,10 µg/mL,12%
Nc1nc(=O)n([C@@H]2O[C@H](CO)[C@@H](O)[C@@H]2F)cc1I,G,VERO,virus yield,0.1 µM,71%
C=CCc1cn([C@H]2C[C@H](O)[C@@H](CO)O2)c(=O)[nH]c1=O,333,HeLa,plaque count,25 µM,>99%
O=c1[nH]c(=O)n([C@H]2C[C@H](O)[C@@H](CO)O2)cc1I,K979,HEP-2,cytopathic effect,0.3 µg/mL,≥25%
CC(C)CCCC(COS(=O)(=O)O)C1CCC2C3CC=C4C[C@H](O)[C@@H](OS(=O)(=O)O)CC4(C)C3CCC12C,G,VERO,plaque count,80 µg/mL,100%
CSc1cnc(=O)n([C@H]2C[C@H](O)[C@@H](CO)O2)c1,333,HeLa,plaque count,200 µM,59%
O=c1[nH]c(=O)n([C@H]2C[C@H](O)[C@@H](CO)O2)cc1/C=C/Br,G,PRK,cytopathic effect,2.3 µg/mL,≥25%
CC12CC[C@H](OS(=O)(=O)O)CC1=CCC1C2CCC2(C)C(C(=O)CO)CCC12,G,VERO,plaque count,80 µg/mL,0%
O=c1ccn([C@@H]2O[C@H](CO)[C@@H](O)[C@@H]2F)c(=O)[nH]1,G,VERO,virus yield,10 µM,99.82%
Cc1cn([C@@H]2O[C@H](CO)[C@@H](O)[C@@H]2F)c(=O)[nH]c1=O,K979,HEP-2,cytopathic effect,0.1 µg/mL,≥25%

A second listing of 2 rows from above:

smiles,strain or isolate,cell line,method,dose,result
O=C(O)C(O)c1ccccc1,G,CaSki,plaque count,100 µg/mL,100%
C=CCc1cn([C@H]2C[C@H](O)[C@@H](CO)O2)c(=O)[nH]c1=O,333,HeLa,plaque count,25 µM,>99%

Percent inhibition refers to the dose given; in toxicity tests it is the harm to the cells.